Results of unrelated studies side by side (data: NIAID ChemDB).

Shared fields: growth or infection tests; species: HIV-1

An empty or dashed field is not shown. Lines come from different laboratories, so protocols vary. ECn: concentration that inhibits the pathogen or its effect by n%.

compound	read by	cells	changes	strain or isolate	endpoint	setting	value
Cn1c2ccccc2c2c1cc(C#N)c(=O)n2-c1ccc([N+](=O)[O-])cc1	luciferase	HeLa	RT-M184V	Recombinant	EC50	-	0.176 µM
Cc1cc(C#Cc2cccc(N)c2)cc(C)c1Oc1ccnc(NC2CCN(Cc3cccc(C(N)=O)c3)CC2)n1	MTT	MT-4	E138K	IIIB	EC50	-	0.027 µM
CCn1nc(Cc2ccc(OC)c(C#N)c2)cc1C1CCN(C[C@H]2CN([C@@H](C(=O)O)C(C)(C)C)C[C@@H]2c2cccc(F)c2)CC1	β-galactosidase	HeLa	-	BaL	EC90	-	<0.00014 µM
O=C1N(Cc2ccc(CO)cc2)[C@H](Cc2ccccc2)[C@H](O)[C@@H](O)[C@@H](Cc2ccccc2)N1Cc1ccc(CO)cc1	p24	PBMC	-	1 clinical isolate	EC50	-	0.07 µM
CCn1nc(Cc2ccc(O)cc2)cc1C1CCN(C[C@H]2CN([C@@H](C(=O)O)C(C)(C)C)C[C@@H]2c2cccc(F)c2)CC1	β-galactosidase	HeLa	-	BaL	EC50	50% human serum	<0.011 µM
C/C=C/CSc1cc(NC(=S)c2ccsc2C)ccc1Cl	cytopathic effect / XTT	CEM + CEM-SS	RT-Y181C	UC38-RS (RT-Y181C)	EC50	-	>2 µM
C[C@H](Cn1cnc2c(N)ncnc21)OCP(=O)(O)O	p24	MT-2	RT-L74V	74V (ddI- ddC-resistant RT L74V)	EC50	-	2 µM
CCOP(=O)(COc1ccc(C[C@H](NC(=O)O[C@H]2CO[C@H]3OCC[C@H]32)[C@H](O)CN(CC(C)C)S(=O)(=O)c2ccc(OC)cc2)cc1)OCC	p24 / ELISA	MT-2	K112M K113E V128I M200I H219P	IIIB	EC50	-	0.008 µM
CC[C@H](C)[C@H](C(=O)O)N1C[C@H](CN2CCC(c3cc(Cc4ccc(OC)c(OC)c4)nn3CC)CC2)[C@@H](c2cccc(F)c2)C1	β-galactosidase	HeLa	-	BaL	EC50	50% human serum	<0.033 µM
CCCc1cc(=O)oc2c3c(c4c(c12)OC(C)(C)C=C4)O[C@@H](C)[C@H](C)[C@@H]3O	XTT	CEM + CEM-SS	RT-L100I T139I	Costatolide-resistant (RT L100I T139I)	EC50	-	>27 µM
CO[P@](=O)(c1cc(C)cc(/C=C/C#N)c1)c1c(C(N)=O)[nH]c2ccc(Cl)cc12	-	MT-4	K103N/Y181C	IIIB	EC50	-	0.0091 µM
S=C(NCCc1cccs1)Nc1ccc(Br)cn1	plaque count	HT4 + HeLa	RT-K70R	M893-1 Clinical isolate NRTI-resistant	EC50	-	0.18 µM
Cc1cn([C@H]2C[C@H](N=[N+]=[N-])[C@@H](CO)O2)c(=O)[nH]c1=O	XTT	CEM + CEM-SS	RT-Y188C	NL4-3	EC50	-	0.006 µM
O=c1[nH]cnc2c1ncn2[C@H]1CC[C@@H](CO)O1	plaque count	HT4 + HT4 LacZ-1	RT-L74V Y181C T215Y	HIVRTMF (RT L74V Y181C)	EC50	-	10 µM
CCc1c(CC2CCCCC2)nc(SCC(=O)c2ccccc2)[nH]c1=O	ELISA	C8166	74V	Clinical isolate	EC50	-	0.00327 µM
CCCc1cc(=O)oc2c3c(c4c(c12)OC(C)(C)C=C4)O[C@H](C)[C@@H](C)[C@@H]3O	XTT	CEM + CEM-SS	RT-L100I T139I	Costatolide-resistant (RT L100I T139I)	EC50	-	>27 µM
CCn1nc(Cc2ccc(OC)c(C#N)c2)cc1C1CCN(C[C@H]2CN([C@@H](C(=O)O)C(C)C)C[C@@H]2c2cccc(F)c2)CC1	β-galactosidase	HeLa	-	BaL	EC50	-	<0.0012 µM
Cc1occc1C(=S)Nc1ccc(Cl)c(/C=N/OC(C)(C)C)c1	cytopathic effect / XTT	CEM + CEM-SS	RT-L100I	NL4-3 (RT L100I)	EC50	-	2.2 µM
COC(=O)N[C@H](C(=O)N[C@@H](Cc1ccccc1)[C@@H](O)CN(Cc1ccc(-c2ccccn2)cc1)NC(=O)[C@@H](NC(=O)OC)C(C)(C)C)C(C)(C)C	p24 / ELISA	MT-2	L441P	IIIB	EC50	-	0.0011 µM
Cc1cc(C#Cc2ccc(C(=O)O)cc2)cc(C)c1Oc1ccnc(Nc2ccc(C#N)cc2)n1	MTT	MT-4	E138K	IIIB	EC50	-	0.244 µM
N#Cc1cc2[nH]c3ccccc3c2n(-c2ccc([N+](=O)[O-])cc2)c1=O	luciferase	HeLa	RT-M41L A62V S68N G112S M184V	Recombinant	EC50	-	>0.1769 µM
CC[C@H](C)[C@H](C(=O)O)N1C[C@H](CN2CCC(c3cc(Cc4cc(C(F)(F)F)cc(C(F)(F)F)c4)nn3CC)CC2)[C@@H](c2cccc(F)c2)C1	β-galactosidase	HeLa	-	BaL	EC90	50% human serum	>0.3 µM
Cc1ccnc2c1NC(=O)c1cccnc1N2C1CC1	XTT	CEM + CEM-SS	RT-V108I	Thiazolobenzimidazole-resistant (RT V108I)	EC50	-	0.3 µM
O=c1[nH]cnc2c1ncn2[C@H]1CC[C@@H](CO)O1	p24	PBL	-	LAV	EC50	-	1.2 µM
Cc1cn([C@H]2C[C@H](N=[N+]=[N-])[C@@H](CO)O2)c(=O)[nH]c1=O	cytopathic effect / XTT	CEM + CEM-SS	RT-Y181C K101E	UC10-resistant (RT Y181C K101E)	EC50	-	0.2 µM
CCn1nc(Cc2ccc3ccccc3c2)cc1C1CCN(C[C@H]2CN([C@@H](C(=O)O)C(C)(C)C)C[C@@H]2c2cccc(F)c2)CC1	β-galactosidase	HeLa	-	BaL	EC90	-	<0.00014 µM
Cc1cn([C@H]2C=C[C@@H](CO)O2)c(=O)[nH]c1=O	luciferase	HeLa	RT-A62T V118I M184V	Recombinant	EC50	-	1.34 µM
Cc1cn([C@H]2C[C@H](N=[N+]=[N-])[C@@H](CO)O2)c(=O)[nH]c1=O	p24 / ELISA	MT-2	D437N L441P	IIIB	EC50	-	0.153 µM
Cc1ccc(/C=C/c2cc(C)c(Oc3ccnc(Nc4ccc(C#N)cc4)n3)c(C)c2)cc1	MTT	MT-4	-	IIIB	EC50	-	0.052 µM
CCn1nc(Cc2ccc(F)cc2F)cc1C1CCN(C[C@H]2CN([C@@H](C(=O)O)C(C)C)C[C@@H]2c2cccc(F)c2)CC1	β-galactosidase	HeLa	-	BaL	EC50	-	<0.1 µM
Cc1ccnc2c1NC(=O)c1cccnc1N2C1CC1	cytopathic effect / XTT	CEM + CEM-SS	RT-Y188C	NL4-3 (RT Y188C)	EC50	-	3.2 µM
Cc1cn([C@H]2C[C@H](N=[N+]=[N-])[C@@H](CO)O2)c(=O)[nH]c1=O	p24	PBMC	-	7932 CLADE B CLADE B	EC50	-	0.002 µM
CCn1nc(Cc2ccc(OC)cc2)cc1C1CCN(C[C@H]2CN([C@@H](C(=O)O)C(C)C)C[C@@H]2c2cccc(F)c2)CC1	β-galactosidase	HeLa	-	BaL	EC50	50% human serum	<0.1 µM
Cc1cc(C#Cc2cccc(N)c2)cc(C)c1Oc1ccnc(NC2CCN(c3cccc(C(N)=O)c3)CC2)n1	MTT	MT-4	RES056	IIIB	EC50	-	>1.063 µM
CC(C)(C)NC(=O)[C@@H]1C[C@@H]2CCCC[C@@H]2CN1C[C@@H](O)[C@H](Cc1ccccc1)NC(=O)[C@H](CC(N)=O)NC(=O)c1ccc2ccccc2n1	p24	MT-4	PR-I84V	NL4-3	EC50	-	<0.09 µM
CC(C)=CCN1c2cc(Cl)cc3[nH]c(=S)n(c23)C[C@@H]1C	-	MT-4	RT-D67N K70R T215Y K219Q A98G	-	EC95	-	0.2 µM
CC[C@H](C)[C@H](C(=O)O)N1C[C@H](CN2CCC(c3cc(Cc4ccc(S(=O)(=O)c5ccccc5)cc4)nn3CC)CC2)[C@@H](c2cccc(F)c2)C1	β-galactosidase	HeLa	-	BaL	EC90	-	<0.00014 µM

3 of the rows above, restated:

| compound | read by | cells | changes | strain or isolate | endpoint | setting | value |
|---|---|---|---|---|---|---|---|
| CC[C@H](C)[C@H](C(=O)O)N1C[C@H](CN2CCC(c3cc(Cc4ccc(OC)c(OC)c4)nn3CC)CC2)[C@@H](c2cccc(F)c2)C1 | β-galactosidase | HeLa | - | BaL | EC50 | 50% human serum | <0.033 µM |
| Cc1cn([C@H]2C[C@H](N=[N+]=[N-])[C@@H](CO)O2)c(=O)[nH]c1=O | p24 | PBMC | - | 7932 CLADE B CLADE B | EC50 | - | 0.002 µM |
| O=c1[nH]cnc2c1ncn2[C@H]1CC[C@@H](CO)O1 | p24 | PBL | - | LAV | EC50 | - | 1.2 µM |